From the supplement of paper PMC9931576
Human monoclonal antibodies against the spike receptor-binding domain (heavy:light variable regions). IC50 against pseudoviruses bearing the spike of naturally observed variants; lower = stronger; >10 µg/ml means not reached at the top dose. No active / inactive call. The stated detection limit is 0.0005 µg/ml; values near or below 0.001 µg/ml lie at the floor of the assay.

B1: BD55-4892 (protein)
chain 1: QVQLVESGGGVVQPGGSLRLSCAASGFTFSTYGMHWVRQAPGKGLEWVAVISYDGNNKYHADSVKGRFTISRDNSKNTLYLEMKSLRAEDTAVYYCAKEVNYGSGSFENEGRLDYWGQGTLVTVSS
chain 2: DIQMTQSPSSLSASVGDRVTITCRTSQSINRYLNWYQQKPGKAPKLLIYATSTLQSGVPSRFSGSGSGTDFILTISNLQPEDFAAYYCQQTYSIPWTFGQGTKVEIK
B2: BD55-5163 (protein)
chain 1: QVQLVQSGAEVKKPGASLKVSCKASGYTFTYFGVSWVRQAPGQGLEWVGWISTYHGDTNYAQKLQGRVTLTTDTSTSTVYMELRNLRSDDTAIYYCAREGGSGWGDFWGQGTLVTVSS
chain 2: EIVLTQSPATLSLSPGERATLSCRANQSISNYLAWYQQRPGQAPRLLIFDASNRATGIPARFTGSGSETDFTLTISSLEPEDFAVYYCQQRSNWPPAFGQGTRLDIK
B3: BD55-5212 (protein)
chain 1: QLQLQESGPGLVKPSETLSLTCAVSRGSISYGSFFWGWIRQPPGKGLEWIGTLDDSGSTYYNPSLKSRVTFSVDTSKNQFSLQLSSVTAADTAVYYCASTSSAWYKGYYFDFWGQGTLVTVSS
chain 2: QSVLTQPPSVSGAPGQRVTISCTGSSSNIGAGYNVQWYQQFPGTAPKLLIYGNRNRPSGVPDRFSASKSGTSASLAITGLQAEDEADYYCQSYDSSLSGWVLGTGTEVIVL
B4: BD55-1009 (protein)
chain 1: QVQLVQSGAEVKKPGSSVKVSCKTSGGTFRNYPISWVRQAPGQGLEWMGRIIPVPGTVDYAQKFQGRVTFTADKSTFTAYMELNSLRSDDTAVYYCATWAEIYTSASSWAFDTWGQGTRVTVSS
chain 2: DIQMTQSPSSLSASVGDRITITCLASQDINNYLNWYQQKPGKAPKLLIYDASNLVTGVPSRFSGSGSGTDFVFTITGLQPEDFATYYCQHYDNLPPITFGQGTRLEIK
B5: BD55-5201 (protein)
chain 1: QVQVVQSGAEVKKPGSSVKVSCEASGGTFSSDTIHWVRQAPGQGLEWMGRIIPIPGIVNYAQKFQGRVTITADKSTSIAYMELSSLRSEDTAVYYCASAPPRGYSGYDLLGNDPLDIWGQGTMVTVSS
chain 2: QSVLTQPPSVSGAPGQRVTISCTGSSSNIGAGYDVHWYQQLPGTAPKFFISVNNNRPSGVPDRFSGSKSGTSASLAITGLQAEDEAVYYCQSFDSSLSGSYVFGTGTKVTVL
B6: BD55-1029 (protein)
chain 1: EVKLVESGGGLVQPGRSLRLSCAGSGFTFDDYAIHWVRQVAGKGLEWVSGMSRNSGTIGYVESVKGRFIISRDNAKNSLYLQMNRLRVEDTALYYCAKDSGKDTAMVWSSGWQNGMDVWGQGTTVIVSS
chain 2: EIVLTQSPATLSLSPGERATLSCRTSQNVSSFLAWYQQKAGQAPRLLIYDASNRATGIPARFSGSGSGTDFVLTISSLEPEDFAVYYCQQRSDWPPLTFGGGTKVEIK
B7: BD55-4495 (protein)
chain 1: QGHLVQSGAEVKEPGASVTLSCKASGYTFTNHFMHWVRQAPGQGLEWMARINPSGDSTNLAQKFQGRVSVTRDSSTSTVYMYLSRLRVEDTAVYYCARDRFPSPGNFVWGSPLGGMDVWGQGTTVTVSS
chain 2: SYDLAQPPSVSVSPGQTATITCSGAALPNQYAYWYQQKSGQAPVLLLYKDSERPSGIPERFSGSNSGTTVTLTISGVQAEDEAVYYCQSADSSTSYHVFGAGTKVTVL
B8: BD55-4637 (protein)
chain 1: QITLKESGPTLVKPKQTLTLTCTFSGFSLKKNGVGVGWIRQPPGKALEWLALIYWDDSKRYNPSLKTRLTITGDTSKNQVVLTLTNVDPVDTATYFCAHRPDLDSDLIVVDAFDMWGQGTMVTVSS
chain 2: QSVLTQPPSASGTPGQRVTISCSGSSSNIGRNTVNWYQHLPGTVPKLLIYHNNHRPSGVPGRFSGSKSGTSASLAISGLQSEDEADYYCETWDDSLSGVVFGAGTRLTVL
B9: BD55-4467 (protein)
chain 1: EVQLVESGGGLIQPGGSLRLSCAASGFIFSRYAMSWVRQPPGKGLEWVASISGGADDTYYADSVKGRLTTSRDNSKNTLYLQMNTLRVEDTAVYYCAKGPRYNWDYGDYWGQGIMVTVSS
chain 2: DIQMTQSPSTLSASVGDRVTMTCRASQSISSWLAWYQQKPGKAPKLLIYDASSLDSGVPSRFSGSGSGTEFTLTISSLQPDDFATYYCQQYNSYLSTFGQGTKLEIK
B10: BD55-4397 (protein)
chain 1: EVQLVESGGGLVQPGGSLRLSCTASGFAFSTYEMNWVRQAPGKGLEWVSFISTGGNILYYADSLEGRFTISRDNAKNSLYLQMNGLRAEDTAVYYCARHYYDTSGLRGFFQHWGRGTLVTVSS
chain 2: DIQMTQSPSSLSASVGDRVTITCRASQSIGTYLNWYQQKPGKAPKLLIYAASSLQSGVPSRFSGSGSGTDFTLTISSLQPEDFATYYCQQSYTTFFFTFGPGTKVVIR
B11: BD55-4760 (protein)
chain 1: EVQLVEAGGDLVQPGRSLRLSCAASGFNFDDCAMHWVRQAPGKGLEWVSGINWSSGDIDYADSVKGRFTISRDNAKNSLYLQMNSLRPEDTAFYYCAKDPWGELSSIDFWGQGTLVTVSS
chain 2: QLVLTQSPSASASLGASVKLTCTLSRGHSSYAIAWHQQQPEKGPRYLMRVNSDGSHIKGDGIPDRFSGSSSGAERYLTISSLQSEDEADYYCQTWSIGIRVFGGGTKLTVL
B12: BD55-5168 (protein)
chain 1: QVQLVQSGSEVKKPGSSVKVSCKASGGSFRSHAISWVRQAPGQGLEWMGCVIPTFDTANYAQNFRGRVTLTADESTSTAYMELTSLTSDDTAVYYCARLFPNGTPDSPTGPLDYWGQGTLVTVSS
chain 2: DIQMTQSPSSLSASVGDRVTITCQASQGIGNYLNWYQQKPGKAPKLLIYGASNLHTGVPSRFSGRGSGTHFTFTINSLQPEDVATYYCQQYDYVPMYTFGQGTKLEIK

What follows are binders tested against SARS-CoV-2 Omicron BA.1 spike pseudovirus (assay: pseudovirus neutralization IC50; higher = weaker neutralization).
Description: (§1)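 Single-round VSV luciferase pseudovirus mixed with antibody dilutions for 1 h and put on Huh-7 cells for about a day; IC50 from the dose curve.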
In the case of B1, the “pseudovirus neutralization IC50” value is reported as over 10 µg/mL. B2 was tested, and the “pseudovirus neutralization IC50” value was over 10 µg/mL. With B3 the “pseudovirus neutralization IC50” value was 3.3 µg/mL. In the case of B4, the “pseudovirus neutralization IC50” value is reported as over 10 µg/mL. For B5, the “pseudovirus neutralization IC50” value was over 10 µg/mL. In the case of B6, the “pseudovirus neutralization IC50” value is reported as 0.854 µg/mL. With B7 the “pseudovirus neutralization IC50” value was 0.13 µg/mL. With B8 the “pseudovirus neutralization IC50” value was 0.0227 µg/mL. In the case of B9, the “pseudovirus neutralization IC50” value is reported as 7.27 µg/mL. For B10, the “pseudovirus neutralization IC50” value was over 10 µg/mL. For B11, the “pseudovirus neutralization IC50” value was over 10 µg/mL. For B12, the “pseudovirus neutralization IC50” value was 0.0663 µg/mL.

Each binder was assayed against SARS-CoV-2 Omicron BA.2 spike pseudovirus in the same assay as above.
Description: as §1
With B1 the “pseudovirus neutralization IC50” value was over 10 µg/mL. In the case of B2, the “pseudovirus neutralization IC50” value is reported as over 10 µg/mL. With B3 the “pseudovirus neutralization IC50” value was 6.93 µg/mL. In the case of B4, the “pseudovirus neutralization IC50” value is reported as 0.0158 µg/mL. In the case of B5, the “pseudovirus neutralization IC50” value is reported as over 10 µg/mL. With B6 the “pseudovirus neutralization IC50” value was 0.926 µg/mL. B7 was tested, and the “pseudovirus neutralization IC50” value was 0.146 µg/mL. B8 was tested, and the “pseudovirus neutralization IC50” value was 0.0225 µg/mL. With B9 the “pseudovirus neutralization IC50” value was 8.94 µg/mL. With B10 the “pseudovirus neutralization IC50” value was over 10 µg/mL. For B11, the “pseudovirus neutralization IC50” value was over 10 µg/mL. In the case of B12, the “pseudovirus neutralization IC50” value is reported as 0.491 µg/mL.

The binders below were run against SARS-CoV-2 Omicron BA.2.75 spike pseudovirus in the same assay as above.
Description: as §1
For B1, the “pseudovirus neutralization IC50” value was over 10 µg/mL. With B2 the “pseudovirus neutralization IC50” value was over 10 µg/mL. For B3, the “pseudovirus neutralization IC50” value was 3.97 µg/mL. In the case of B4, the “pseudovirus neutralization IC50” value is reported as 0.422 µg/mL. For B5, the “pseudovirus neutralization IC50” value was over 10 µg/mL. In the case of B6, the “pseudovirus neutralization IC50” value is reported as 0.462 µg/mL. B7 was tested, and the “pseudovirus neutralization IC50” value was 0.157 µg/mL. With B8 the “pseudovirus neutralization IC50” value was 0.0302 µg/mL. B9 was tested, and the “pseudovirus neutralization IC50” value was 6.29 µg/mL. In the case of B10, the “pseudovirus neutralization IC50” value is reported as over 10 µg/mL. In the case of B11, the “pseudovirus neutralization IC50” value is reported as over 10 µg/mL. In the case of B12, the “pseudovirus neutralization IC50” value is reported as 0.405 µg/mL.

Each binder was assayed against SARS-CoV-2 Omicron BA.5 spike pseudovirus in the same assay as above.
Description: as §1
With B1 the “pseudovirus neutralization IC50” value was over 10 µg/mL. With B2 the “pseudovirus neutralization IC50” value was over 10 µg/mL. B3 was tested, and the “pseudovirus neutralization IC50” value was 5.29 µg/mL. With B4 the “pseudovirus neutralization IC50” value was over 10 µg/mL. For B5, the “pseudovirus neutralization IC50” value was over 10 µg/mL. For B6, the “pseudovirus neutralization IC50” value was over 10 µg/mL. In the case of B7, the “pseudovirus neutralization IC50” value is reported as 0.321 µg/mL. B8 was tested, and the “pseudovirus neutralization IC50” value was 0.0243 µg/mL. In the case of B9, the “pseudovirus neutralization IC50” value is reported as over 10 µg/mL. B10 was tested, and the “pseudovirus neutralization IC50” value was over 10 µg/mL. For B11, the “pseudovirus neutralization IC50” value was over 10 µg/mL. With B12 the “pseudovirus neutralization IC50” value was 0.677 µg/mL.

What follows are binders tested against SARS-CoV-2 Omicron BQ.1.1 spike pseudovirus in the same assay as above.
Description: as §1
With B1 the “pseudovirus neutralization IC50” value was over 10 µg/mL. In the case of B2, the “pseudovirus neutralization IC50” value is reported as over 10 µg/mL. B3 was tested, and the “pseudovirus neutralization IC50” value was over 10 µg/mL. B4 was tested, and the “pseudovirus neutralization IC50” value was over 10 µg/mL. In the case of B5, the “pseudovirus neutralization IC50” value is reported as over 10 µg/mL. B6 was tested, and the “pseudovirus neutralization IC50” value was over 10 µg/mL. In the case of B7, the “pseudovirus neutralization IC50” value is reported as over 10 µg/mL. For B8, the “pseudovirus neutralization IC50” value was 0.0189 µg/mL. In the case of B9, the “pseudovirus neutralization IC50” value is reported as over 10 µg/mL. With B10 the “pseudovirus neutralization IC50” value was over 10 µg/mL. B11 was tested, and the “pseudovirus neutralization IC50” value was over 10 µg/mL. For B12, the “pseudovirus neutralization IC50” value was over 10 µg/mL.

Each binder was assayed against SARS-CoV-2 Omicron XBB spike pseudovirus in the same assay as above.
Description: as §1
For B1, the “pseudovirus neutralization IC50” value was over 10 µg/mL. For B2, the “pseudovirus neutralization IC50” value was over 10 µg/mL. With B3 the “pseudovirus neutralization IC50” value was over 10 µg/mL. For B4, the “pseudovirus neutralization IC50” value was over 10 µg/mL. In the case of B5, the “pseudovirus neutralization IC50” value is reported as over 10 µg/mL. With B6 the “pseudovirus neutralization IC50” value was over 10 µg/mL. In the case of B7, the “pseudovirus neutralization IC50” value is reported as over 10 µg/mL. For B8, the “pseudovirus neutralization IC50” value was 0.0277 µg/mL. B9 was tested, and the “pseudovirus neutralization IC50” value was over 10 µg/mL. With B10 the “pseudovirus neutralization IC50” value was over 10 µg/mL. In the case of B11, the “pseudovirus neutralization IC50” value is reported as over 10 µg/mL. With B12 the “pseudovirus neutralization IC50” value was over 10 µg/mL.

What follows are binders tested against SARS-CoV-2 early D614G spike pseudovirus in the same assay as above.
Description: as §1
In the case of B1, the “pseudovirus neutralization IC50” value is reported as 0.306 µg/mL. For B2, the “pseudovirus neutralization IC50” value was 0.0337 µg/mL. With B3 the “pseudovirus neutralization IC50” value was 0.925 µg/mL. B4 was tested, and the “pseudovirus neutralization IC50” value was 0.00195 µg/mL. In the case of B5, the “pseudovirus neutralization IC50” value is reported as 0.0188 µg/mL. In the case of B6, the “pseudovirus neutralization IC50” value is reported as 0.126 µg/mL. B7 was tested, and the “pseudovirus neutralization IC50” value was 0.0294 µg/mL. B8 was tested, and the “pseudovirus neutralization IC50” value was 0.0201 µg/mL. For B9, the “pseudovirus neutralization IC50” value was over 10 µg/mL. With B10 the “pseudovirus neutralization IC50” value was 2.18 µg/mL. For B11, the “pseudovirus neutralization IC50” value was 0.242 µg/mL. B12 was tested, and the “pseudovirus neutralization IC50” value was 0.0639 µg/mL.
